Results of unrelated studies side by side (data: NIAID ChemDB).

Shared fields: whole-cell or culture tests; agent: Candida albicans; measure: MIC

Conditions beyond the fields shown may differ between rows.

{"smiles": "COc1ccc(-c2nnc(Nc3nc(O)c(C4=c5cc(Br)ccc5=NC4=O)s3)o2)cc1", "strain": "ATCC 10231", "result": "16 µg/mL"}
{"smiles": "CCCNC(=S)NNC(=O)Cc1csc2nc(-c3ccc(Br)cc3)cn12", "strain": "ATCC 10231", "result": ">32 µg/mL"}
{"smiles": "Nc1ncnc2c1ncn2[C@@H]1O[C@H](C(=O)O)[C@@H](NC(=O)C(N)CSCc2ccc3c(c2)OCO3)[C@H]1O", "strain": "FP633", "result": "0.2 µg/mL"}
{"smiles": "CCCCCC[C@H]1OC(=O)CNC(=O)[C@@H]([C@@H](C)O)NC(=O)[C@@H](CO)NC(=O)[C@H]([C@@H](C)CC)NC(=O)[C@H](CC(C)C)N(C)C(=O)[C@@H]1C", "result": ">100 µg/mL"}
{"smiles": "COc1ccc(-c2nnc(Nc3nc(O)c(C4=c5cc(C)ccc5=NC4=O)s3)o2)cc1", "strain": "ATCC 10231", "result": "16 µg/mL"}
{"smiles": "Nc1ncnc2c1ncn2[C@@H]1O[C@H](C(=O)O)[C@@H](NC(=O)/C=C\\c2ccccc2)[C@H]1O", "strain": "FP633", "result": ">100 µg/mL"}
{"smiles": "COc1cc2c3c(ccnc3c1OC)N(Cc1ccccc1)C=C2", "result": ">64 µg/mL"}
{"smiles": "CCCCCC[C@H]1OC(=O)CNC(=O)[C@@H]([C@H](C)O)NC(=O)[C@@H](CO)NC(=O)[C@H]([C@H](C)CC)NC(=O)[C@H](CC(C)C)NC(=O)[C@@H]1C", "result": ">100 µg/mL"}
{"smiles": "COc1ccc(-c2nnc(/N=C3\\NC(=O)/C(=C4/C(=O)N(C)c5ccccc54)S3)o2)cc1", "strain": "ATCC 10231", "result": "8 µg/mL"}
{"smiles": "C(=N\\Nc1nnc2c(n1)Nc1ccccc1C2)/c1ccccc1", "strain": "ATCC 2091", "result": "200 µg/mL"}
{"smiles": "COc1cc(O)c2c(c1)C(=O)c1c(cc3c(c1O)-c1c(cc(C)c(C(=O)NC(CO)C(=O)O)c1O)[C@H](OC1OC(C)C(O)C(OC4OCC(O)C(O)C4O)C1O)C3O)C2=O", "strain": "(FLU-R)", "result": "6.25 µg/mL"}
{"smiles": "Nc1ncnc2c1ncn2[C@@H]1O[C@H](C(=O)O)[C@@H](NC(=O)C(N)CSC/C=C\\c2ccccc2)[C@H]1O", "strain": "FP633", "result": "0.2 µg/mL"}
{"smiles": "CC[C@@H](C)n1ncn(-c2ccc(N3CCN(c4ccc(OC[C@H]5CO[C@](Cn6cncn6)(c6ccccn6)O5)cc4)CC3)cc2)c1=O", "strain": "21", "result": "39 µg/mL"}
{"smiles": "COC(=O)c1c(C)oc2cc(C(=O)C(Cl)Cl)c(O)c(Cl)c12", "strain": "ATCC 90028", "result": "100 µg/mL"}
{"smiles": "CCC(=O)c1c(O)n(CCOC(C)=O)c(-c2ccccc2)nc1=S", "result": ">100 µg/mL"}
{"smiles": "O=C(Cc1csc2nc(-c3ccc(Br)cc3)cn12)NNC(=S)Nc1ccc([N+](=O)[O-])cc1", "strain": "ATCC 10231", "result": "32 µg/mL"}
{"smiles": "COc1cc(CCCO)cc2cc(-c3ccc4c(c3)OCO4)oc12", "strain": "ICB 12", "result": "10 µg/mL"}
{"smiles": "CC(=O)OCCn1c(-c2ccccc2)nc(=S)c(C(C)=O)c1C", "result": "100 µg/mL"}
{"smiles": "NCCSC[C@@H](N)C(=O)N[C@H]1[C@@H](O)[C@H](n2cnc3c(N)ncnc32)O[C@@H]1C(=O)O", "strain": "FP633", "result": "25 µg/mL"}
{"smiles": "Cc1cc2ncn(CC(O)COc3cc(OCC(O)Cn4cnc5cc(C)c(C)cc54)c4c(C)cc(=O)oc4c3)c2cc1C", "result": "16 µg/mL"}
{"smiles": "CC1OC(OC2CCC(c3ccc4c(c3O)C(=O)C3=C(C4=O)[C@@]4(O)C(=O)C[C@](C)(OC5C=CC(=O)C(C)O5)C[C@@]4(O)C=C3)OC2C)C=CC1=O", "strain": "6 strains", "result": "78 µg/mL"}
{"smiles": "Clc1ccc(COC(Cn2ccnc2)c2ccc(Cl)cc2Cl)c(Cl)c1", "strain": "ATCC 10231", "result": "15.6 µg/mL"}
{"smiles": "Cc1cc(=O)oc2cc(OCC(O)Cn3nnc4ccccc43)cc(OCC(O)Cn3nnc4ccccc43)c12", "result": "8 µg/mL"}
{"smiles": "NCCNC(=O)C1=Nc2ccc(NC(=O)C3=Nc4ccc(C(=O)Nc5ccc6[nH]c(C(=O)NCCN)cc6c5)cc4C3)cc2C1", "result": "2 µg/mL"}
{"smiles": "Cc1ccc2c(c1)=C(c1sc(Nc3nnc(-c4ccccc4)o3)nc1O)C(=O)N=2", "strain": "ATCC 10231", "result": "16 µg/mL"}
{"smiles": "CC[C@@H](C)n1ncn(-c2ccc(N3CCN(c4ccc(OC[C@@H]5CO[C@@](Cn6cncn6)(c6ccccn6)O5)cc4)CC3)cc2)c1=O", "strain": "GEN-45", "result": "≤0.03 µg/mL"}
{"smiles": "Cc1c(O)cccc1C(=O)N[C@@H](CSc1ccccc1)[C@H](O)CN1C[C@H]2CCCC[C@H]2C[C@H]1C(=O)NC(C)(C)C", "strain": "90028", "result": ">64 µg/mL"}
{"smiles": "O=C(Cc1csc2nc(-c3ccc(Br)cc3)cn12)N/N=C1\\SCC(=O)N1c1ccc([N+](=O)[O-])cc1", "strain": "ATCC 10231", "result": "32 µg/mL"}
{"smiles": "NS(=O)(=O)c1ccc(C2C=C(c3ccc(Br)cc3)CC2c2ccccc2)cc1", "strain": "ATCC 2091", "result": "200 µg/mL"}
{"smiles": "O=C1N=c2ccc([N+](=O)[O-])cc2=C1c1sc(Nc2nnc(-c3ccc(Cl)cc3)o2)nc1O", "strain": "ATCC 10231", "result": "16 µg/mL"}
{"smiles": "CCCN1C(=O)CS/C1=N\\NC(=O)Cc1csc2nc(-c3ccc(Br)cc3)cn12", "strain": "ATCC 10231", "result": ">32 µg/mL"}
{"smiles": "C=C1C(=O)OC2C3C4(OC4[C@H](O)[C@@]3(C)O)[C@@H](C)C[C@@H](O)[C@@H]12", "result": "20 µg/mL"}
{"smiles": "COc1ccc(-c2cc3cc(CCCO)cc(OC)c3o2)cc1OC", "strain": "ICB 12", "result": "12 µg/mL"}
{"smiles": "NS(=O)(=O)c1ccc(C2C=C(c3ccc(Br)cc3)C(Br)C2c2ccccc2)cc1", "strain": "ATCC 2091", "result": "50 µg/mL"}
{"smiles": "O=C(Cc1csc2nc(-c3ccc(Br)cc3)cn12)NNC(=S)Nc1ccc(Br)cc1", "strain": "ATCC 10231", "result": ">32 µg/mL"}
{"smiles": "COc1ccc(C2=NOC(c3cc4c([nH]3)CC(C)(C)CC4=O)C2)cc1", "strain": "ATCC 2091", "result": "200 µg/mL"}
{"smiles": "COc1ccc(C[n+]2ccc3c4c(cc(OC)c(OC)c42)C=CN3Cc2cc(OC)c(OC)c(OC)c2)cc1O", "result": ">64 µg/mL"}
{"smiles": "CCCCn1c(-c2ccccc2)nc(=S)c(C(=O)OCC)c1O", "result": ">100 µg/mL"}
{"smiles": "CCCCCC[C@H]1OC(=O)CNC(=O)[C@@H]([C@H](C)O)NC(=O)[C@@H](CO)NC(=O)[C@H]([C@@H](C)CC)NC(=O)[C@H](CC(C)C)N(C)C(=O)[C@@H]1C", "result": ">100 µg/mL"}
{"smiles": "NNC(=O)Cc1nnc2nnc3c(n12)Nc1ccccc1C3", "strain": "ATCC 2091", "result": "200 µg/mL"}
{"smiles": "C=CCNC(=S)NNC(=O)Cc1csc2nc(-c3ccc(Br)cc3)cn12", "strain": "ATCC 10231", "result": ">32 µg/mL"}